Results of unrelated studies side by side (data: NIAID ChemDB).

Common to all: growth or infection tests; species: HIV-1; cell line: U-937; measure: EC50

ECn: concentration that inhibits the pathogen or its effect by n%. Blank or dashed fields: not listed here. Conditions beyond the fields shown may differ between rows.

| structure | strain | method | setting | result |
|---|---|---|---|---|
| CC(C)=CCOc1cc(NC(=S)c2ccsc2C)ccc1Cl | IIIB | cytopathic effect / XTT |  | 0.005 µM |
| CCCc1cc(=O)oc2c3c(c4c(c12)OC(C)(C)CC4)O[C@@H](C)[C@H](C)[C@@H]3O | IIIB | RT activity |  | 0.8 µM |
| COc1c(C)c2c(c(O)c1C/C=C(\C)CCC(=O)O)C(=O)OC2 | LAV-1 | RT activity |  | ~0.01 µM |
| CCCCCCCCCCCCCCCCOP(=O)(OCCO[C@@H]1O[C@H](CO)[C@@H](O)[C@H](O)[C@@H]1O)OC[C@H]1O[C@@H](n2cc(C)c(=O)[nH]c2=O)C[C@@H]1N=[N+]=[N-] | LAV-Bru | RT activity | 11 d | >1 µM |
| CCCCC/C=C/C=C1/C(=O)CCC1C/C=C\CCCC(=O)O |  | ELISA |  | 3.1 µM |
| CC(C)[C@H](NC(=O)OCc1ccccc1)C(=O)N[C@@H](Cc1ccccc1)[C@@H](O)[C@@H](NCc1ccccc1)C(=O)N[C@H](C(=O)NCc1ccccc1)C(C)C | IIIB | MTT / p24 |  | 0.3 µM |
| Cc1cn([C@H]2C[C@H](N=[N+]=[N-])[C@@H](COP(=O)(O)OCCO[C@H]3O[C@H](CO)[C@@H](O)[C@H](O)[C@@H]3O)O2)c(=O)[nH]c1=O | LAV-Bru | RT activity | 7 d | <25 µM |
| CC(C)=CCOc1cc(NC(=S)c2ccoc2C)ccc1Cl | IIIB | cytopathic effect / XTT |  | 0.005 µM |
| Cn1cc(C(=O)O)c(=O)c2cc(F)c(N3CC=C(c4ccccc4)CC3)c(C(F)(F)F)c21 | IIIB | p24 |  | 0.018 µM |
| COC(CC(C)C(O)/C=C/C=C/CNC(=O)C(C)(C)C(O)\C(C)=C/C=C\C=C\Cc1cnc(C)o1)C1(O)C(C)C(=O)N(C)C12C(=O)OC2C |  | RT activity |  | <10 µg/mL |
| CCCCCCCCCCCCCCCCOP(=O)(OC[C@H]1OC(O)[C@@H](O)[C@@H](O)[C@@H]1O)OC[C@H]1O[C@@H](n2cc(C)c(=O)[nH]c2=O)C[C@@H]1N=[N+]=[N-] | LAV-Bru | RT activity | 11 d | >1 µM |
| O=S(=O)(c1cccc2cnccc12)N1CCNCC1 | IIIB | p24 / ELISA |  | >10.5 µg/mL |
| CC(C)CN(C[C@@H](O)[C@H](Cc1ccccc1)NC(=O)O[C@H]1CCOC1)S(=O)(=O)c1ccc(N)cc1 | IIIB | p24 |  | 0.218 µM |
| C=C(C)[C@@H]1CC[C@]2(C(=O)NCCCCCCCC(=O)N[C@@H](CC(C)C)[C@@H](O)CC(=O)O)CC[C@]3(C)[C@H](CC[C@@H]4[C@@]5(C)CC[C@H](O)C(C)(C)[C@@H]5CC[C@]43C)[C@@H]12 | IIIB | p24 / RT activity |  | 0.08 µM |
| Nc1nc(NC2CC2)c2ncn([C@H]3CO[C@@H](CO)O3)c2n1 | IIIB Laboratory strain | RT activity |  | 0.63 µM |
| Cn1c2ccccc2c(=O)c2c(O)cccc21 | IIIB | p24 / ELISA |  | 7 µg/mL |
| CC1(C)Oc2ccc3ccc(=O)oc3c2[C@@H](OC(=O)C23CCC(C)(C(=O)O2)C3(C)C)[C@H]1OC(=O)C12CCC(C)(C(=O)O1)C2(C)C | IIIB | p24 / ELISA |  | 0.0021 µM |
| NC(=O)NO |  | RT activity |  | <200 µM |
| CC(C)[C@H](NC(=O)OCc1ccccc1)C(=O)N[C@@H](Cc1ccccc1)[C@@H](O)[C@@H](NCc1ccc(Br)cc1)C(=O)N[C@H](C(=O)NCc1nc2ccccc2[nH]1)C(C)C | IIIB | MTT / p24 |  | 0.0497 µM |

3 of the rows above, restated:

structure,strain,method,setting,result
CC1(C)Oc2ccc3ccc(=O)oc3c2[C@@H](OC(=O)C23CCC(C)(C(=O)O2)C3(C)C)[C@H]1OC(=O)C12CCC(C)(C(=O)O1)C2(C)C,IIIB,p24 / ELISA,,0.0021 µM
CC(C)=CCOc1cc(NC(=S)c2ccsc2C)ccc1Cl,IIIB,cytopathic effect / XTT,,0.005 µM
O=S(=O)(c1cccc2cnccc12)N1CCNCC1,IIIB,p24 / ELISA,,>10.5 µg/mL